By UniProt entry, the sequences of proteins in these tests, tags left out.
UniProt Q15858, whole entry W1161R, looked up: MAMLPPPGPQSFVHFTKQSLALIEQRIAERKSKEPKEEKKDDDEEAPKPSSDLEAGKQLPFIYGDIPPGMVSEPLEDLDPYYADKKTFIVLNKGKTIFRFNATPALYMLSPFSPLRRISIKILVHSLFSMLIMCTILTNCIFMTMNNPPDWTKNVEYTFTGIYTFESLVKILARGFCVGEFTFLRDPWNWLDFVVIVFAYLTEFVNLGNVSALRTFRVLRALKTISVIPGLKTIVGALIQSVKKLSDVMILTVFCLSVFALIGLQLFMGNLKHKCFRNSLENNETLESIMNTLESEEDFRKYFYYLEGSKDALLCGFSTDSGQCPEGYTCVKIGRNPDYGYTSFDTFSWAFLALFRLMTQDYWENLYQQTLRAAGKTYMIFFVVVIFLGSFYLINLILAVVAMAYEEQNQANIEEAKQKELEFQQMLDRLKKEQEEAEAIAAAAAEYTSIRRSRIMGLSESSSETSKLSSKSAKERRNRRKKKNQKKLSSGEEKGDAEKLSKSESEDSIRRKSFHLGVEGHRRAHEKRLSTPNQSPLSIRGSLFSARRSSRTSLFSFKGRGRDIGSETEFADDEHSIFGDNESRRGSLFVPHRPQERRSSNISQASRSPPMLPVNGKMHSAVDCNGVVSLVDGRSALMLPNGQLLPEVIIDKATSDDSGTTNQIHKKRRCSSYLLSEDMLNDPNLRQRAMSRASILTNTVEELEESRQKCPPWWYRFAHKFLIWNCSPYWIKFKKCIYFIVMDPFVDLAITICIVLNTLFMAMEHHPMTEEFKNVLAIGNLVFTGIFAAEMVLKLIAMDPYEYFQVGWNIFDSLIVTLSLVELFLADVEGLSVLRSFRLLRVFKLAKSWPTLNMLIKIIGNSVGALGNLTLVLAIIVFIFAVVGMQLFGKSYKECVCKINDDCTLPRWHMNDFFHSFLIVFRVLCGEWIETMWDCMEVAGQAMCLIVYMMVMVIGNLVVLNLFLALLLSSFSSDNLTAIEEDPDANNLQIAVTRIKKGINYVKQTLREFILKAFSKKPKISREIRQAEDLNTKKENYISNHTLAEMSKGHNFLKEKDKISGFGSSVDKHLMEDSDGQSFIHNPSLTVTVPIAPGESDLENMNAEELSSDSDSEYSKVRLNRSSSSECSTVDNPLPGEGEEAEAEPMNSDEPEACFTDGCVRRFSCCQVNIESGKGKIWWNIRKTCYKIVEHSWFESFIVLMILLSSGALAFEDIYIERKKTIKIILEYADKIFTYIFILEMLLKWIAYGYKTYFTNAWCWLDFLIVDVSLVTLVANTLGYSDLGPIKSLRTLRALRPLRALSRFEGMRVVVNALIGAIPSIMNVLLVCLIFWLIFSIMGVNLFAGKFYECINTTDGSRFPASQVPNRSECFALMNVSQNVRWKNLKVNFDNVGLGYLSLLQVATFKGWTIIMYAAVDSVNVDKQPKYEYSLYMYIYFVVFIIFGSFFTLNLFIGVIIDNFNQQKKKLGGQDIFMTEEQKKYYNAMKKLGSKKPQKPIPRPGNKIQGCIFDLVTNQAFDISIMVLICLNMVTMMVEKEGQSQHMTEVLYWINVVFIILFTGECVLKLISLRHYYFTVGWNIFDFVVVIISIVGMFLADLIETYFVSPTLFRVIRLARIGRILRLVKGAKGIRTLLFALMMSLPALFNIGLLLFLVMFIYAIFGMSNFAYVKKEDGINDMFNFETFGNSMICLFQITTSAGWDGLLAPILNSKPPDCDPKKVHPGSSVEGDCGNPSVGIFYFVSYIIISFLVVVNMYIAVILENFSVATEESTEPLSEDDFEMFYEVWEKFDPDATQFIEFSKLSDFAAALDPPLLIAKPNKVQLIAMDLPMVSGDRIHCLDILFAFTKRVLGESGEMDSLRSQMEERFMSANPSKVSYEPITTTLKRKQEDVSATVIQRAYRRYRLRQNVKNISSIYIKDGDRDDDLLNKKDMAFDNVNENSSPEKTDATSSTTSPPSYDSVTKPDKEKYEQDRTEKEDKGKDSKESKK
UniProt Q99250, whole entry, looked up: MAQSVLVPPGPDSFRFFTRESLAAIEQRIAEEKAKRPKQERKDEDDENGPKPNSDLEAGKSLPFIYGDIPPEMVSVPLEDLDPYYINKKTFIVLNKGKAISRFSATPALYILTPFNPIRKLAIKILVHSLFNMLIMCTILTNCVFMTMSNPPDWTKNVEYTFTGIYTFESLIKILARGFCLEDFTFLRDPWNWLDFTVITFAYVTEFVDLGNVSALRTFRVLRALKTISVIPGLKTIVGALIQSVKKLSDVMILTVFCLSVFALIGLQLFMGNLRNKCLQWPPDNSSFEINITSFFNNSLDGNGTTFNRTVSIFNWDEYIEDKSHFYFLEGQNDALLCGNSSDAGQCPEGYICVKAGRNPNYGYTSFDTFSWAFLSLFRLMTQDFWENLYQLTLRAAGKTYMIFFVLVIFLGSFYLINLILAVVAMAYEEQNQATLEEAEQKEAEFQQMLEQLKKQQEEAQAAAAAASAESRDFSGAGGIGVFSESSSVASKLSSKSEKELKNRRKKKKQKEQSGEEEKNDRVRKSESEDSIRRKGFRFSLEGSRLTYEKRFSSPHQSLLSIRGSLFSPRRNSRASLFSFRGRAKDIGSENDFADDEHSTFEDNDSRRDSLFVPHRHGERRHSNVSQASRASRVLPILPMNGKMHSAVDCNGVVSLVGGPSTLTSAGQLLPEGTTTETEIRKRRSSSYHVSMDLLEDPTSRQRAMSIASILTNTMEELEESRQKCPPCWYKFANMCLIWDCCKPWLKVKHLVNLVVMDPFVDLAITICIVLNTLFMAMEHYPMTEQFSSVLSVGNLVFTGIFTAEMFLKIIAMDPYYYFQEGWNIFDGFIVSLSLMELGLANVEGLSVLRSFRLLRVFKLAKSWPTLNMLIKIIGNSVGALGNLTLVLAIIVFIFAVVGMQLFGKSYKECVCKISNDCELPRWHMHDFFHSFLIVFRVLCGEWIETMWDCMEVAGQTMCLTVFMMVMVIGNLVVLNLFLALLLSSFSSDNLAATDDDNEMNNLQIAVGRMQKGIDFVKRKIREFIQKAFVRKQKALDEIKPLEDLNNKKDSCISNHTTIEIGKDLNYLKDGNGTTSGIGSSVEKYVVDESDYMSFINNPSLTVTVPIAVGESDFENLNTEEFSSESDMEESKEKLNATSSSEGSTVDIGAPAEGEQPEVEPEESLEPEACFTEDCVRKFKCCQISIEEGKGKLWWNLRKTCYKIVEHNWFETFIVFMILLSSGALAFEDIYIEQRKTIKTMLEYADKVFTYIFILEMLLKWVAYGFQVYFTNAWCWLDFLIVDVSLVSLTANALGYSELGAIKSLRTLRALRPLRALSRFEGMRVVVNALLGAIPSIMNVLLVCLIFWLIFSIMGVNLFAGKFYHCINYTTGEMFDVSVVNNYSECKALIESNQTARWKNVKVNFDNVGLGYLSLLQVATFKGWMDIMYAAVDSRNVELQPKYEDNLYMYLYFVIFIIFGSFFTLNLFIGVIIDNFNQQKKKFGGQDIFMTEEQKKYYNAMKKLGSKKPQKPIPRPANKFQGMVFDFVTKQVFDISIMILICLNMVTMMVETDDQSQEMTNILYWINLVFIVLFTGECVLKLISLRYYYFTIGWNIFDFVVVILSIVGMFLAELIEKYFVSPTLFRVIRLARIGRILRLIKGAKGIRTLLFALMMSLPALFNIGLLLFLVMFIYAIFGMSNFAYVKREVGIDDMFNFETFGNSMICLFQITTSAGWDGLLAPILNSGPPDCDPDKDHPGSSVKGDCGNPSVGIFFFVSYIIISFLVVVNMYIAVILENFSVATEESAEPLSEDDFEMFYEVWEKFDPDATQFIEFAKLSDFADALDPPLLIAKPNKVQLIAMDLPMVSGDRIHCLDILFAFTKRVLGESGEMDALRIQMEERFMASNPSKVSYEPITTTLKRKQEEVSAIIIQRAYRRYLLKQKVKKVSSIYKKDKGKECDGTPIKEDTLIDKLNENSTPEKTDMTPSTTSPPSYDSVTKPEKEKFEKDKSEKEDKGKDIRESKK

In patent publication US10414808B2 (priority 2012, dated 2019):

Assays:
Nav1.7 [1] = target: T1, Nav1.7 (Homo sapiens, UniProt Q15858, W1161R); test: IC50 (Nav1.7) µM; conditions: read-out: IC50 (Nav1.7) µM
Nav1.2 [2] = target: T2, Nav1.2 (Homo sapiens, UniProt Q99250); test: IC50 (Nav1.2) µM; conditions: read-out: IC50 (Nav1.2) µM
Nav1.2 [3] = target: T2, Nav1.2; test: IC50 (Nav1.2) µM; conditions: read-out: IC50 (Nav1.2) µM; remark: listed apart in the source
Nav1.7 [4] = target: T1, Nav1.7; test: IC50 (Nav1.7) µM; conditions: read-out: IC50 (Nav1.7) µM; remark: listed apart in the source

| Compound | IC50 (Nav1.7 [1]) [µM] | IC50 (Nav1.2 [2]) [µM] | IC50 (Nav1.2 [3]) [µM] | IC50 (Nav1.7 [4]) [µM] |
| --- | --- | --- | --- | --- |
| CC[C@H](C)[C@H](NC(=O)[C@H](CCC(N)=O)NC(=O)[C@H](Cc1ccc(O)cc1)NC(=O)[C@H](CCCCN)NC(=O)[C@@H]1CSSC[C@@H]2NC(=O)[C@H](CCC(N)=O)NC(=O)[C@H](CC(=O)O)NC(=O)[C@H](CC(N)=O)NC(=O)[C@H](CO)NC(=O)[C@@H]3CCCN3C(=O)[C@H](CC(N)=O)NC(=O)[C@@H]3CSSC[C@H](NC(=O)[C@H](C(C)C)NC(=O)[C@H](CC(C)C)NC(=O)[C@H](CCCCN)NC(=O)[C@H](CO)NC(=O)[C@H](CO)NC(=O)[C@H](CCCCN)NC(=O)[C@H](CSSC[C@H](NC(=O)[C@H](CC(N)=O)NC(=O)[C@@H]4CCCN4C(=O)CN)C(=O)N[C@@H](CC(C)C)C(=O)N[C@@H](CCC(=O)O)C(=O)N[C@@H]([C@@H](C)CC)C(=O)N[C@@H](Cc4ccccc4)C(=O)N[C@@H](CCCCN)C(=O)N[C@@H](C)C(=O)N3)NC2=O)C(=O)N[C@@H](CO)C(=O)N[C@@H](CCCNC(=N)N)C(=O)N[C@@H](CCCCN)C(=O)N[C@@H]([C@@H](C)O)C(=O)N[C@@H](CCCNC(=N)N)C(=O)N[C@@H](Cc2c[nH]c3ccccc23)C(=O)N1)C(=O)NCC(=O)N[C@@H](CCCCN)C(=O)O | 0.02 | 0.03 | – | – |
| CC[C@H](C)[C@H](NC(=O)[C@H](CCC(N)=O)NC(=O)[C@H](Cc1ccc(O)cc1)NC(=O)[C@H](CCCCN)NC(=O)[C@@H]1CSSC[C@@H]2NC(=O)[C@H](CCC(N)=O)NC(=O)[C@H](CC(=O)O)NC(=O)[C@H](CC(N)=O)NC(=O)[C@H](CO)NC(=O)[C@@H]3CCCN3C(=O)[C@H](CC(N)=O)NC(=O)[C@@H]3CSSC[C@H](NC(=O)[C@H](C(C)C)NC(=O)[C@H](CC(C)C)NC(=O)[C@H](CCCCN)NC(=O)[C@H](CO)NC(=O)[C@H](CO)NC(=O)[C@H](CCCCN)NC(=O)[C@H](CSSC[C@H](NC(=O)[C@H](CCC(=O)O)NC(=O)[C@@H]4CCCN4C(=O)CN)C(=O)N[C@@H](CC(C)C)C(=O)N[C@@H](CCC(=O)O)C(=O)N[C@@H]([C@@H](C)CC)C(=O)N[C@@H](Cc4ccccc4)C(=O)N[C@@H](CCCCN)C(=O)N[C@@H](C)C(=O)N3)NC2=O)C(=O)N[C@@H](CO)C(=O)N[C@@H](CCCNC(=N)N)C(=O)N[C@@H](CCCCN)C(=O)N[C@@H]([C@@H](C)O)C(=O)N[C@@H](C)C(=O)N[C@@H](Cc2c[nH]c3ccccc23)C(=O)N1)C(=O)NCC(=O)N[C@@H](CCCCN)C(=O)O | 0.05 | 0.2 | – | – |
| CC[C@H](C)[C@H](NC(=O)[C@H](CO)NC(=O)[C@H](Cc1c[nH]c2ccccc12)NC(=O)[C@H](CCCCN)NC(=O)[C@@H]1CSSC[C@@H]2NC(=O)[C@H](CCC(N)=O)NC(=O)[C@H](CC(=O)O)NC(=O)[C@H](CC(N)=O)NC(=O)[C@H](CO)NC(=O)[C@@H]3CCCN3C(=O)[C@H](CC(N)=O)NC(=O)[C@@H]3CSSC[C@H](NC(=O)[C@H](C(C)C)NC(=O)[C@H](CC(C)C)NC(=O)[C@H](CCCCN)NC(=O)[C@H](CO)NC(=O)[C@H](CO)NC(=O)[C@H](CCCCN)NC(=O)[C@H](CSSC[C@H](NC(=O)[C@H](CC(N)=O)NC(=O)[C@@H]4CCCN4C(=O)CN)C(=O)N[C@@H](CC(C)C)C(=O)N[C@@H](CCCNC(=N)N)C(=O)N[C@@H]([C@@H](C)CC)C(=O)N[C@@H](Cc4ccccc4)C(=O)N[C@@H](CCCCN)C(=O)N[C@@H](C)C(=O)N3)NC2=O)C(=O)N[C@@H](CO)C(=O)N[C@@H](CCCNC(=N)N)C(=O)N[C@@H](CCCCN)C(=O)N[C@@H]([C@@H](C)O)C(=O)N[C@@H](CCCNC(=N)N)C(=O)N[C@@H](Cc2c[nH]c3ccccc23)C(=O)N1)C(=O)NCC(=O)N[C@@H](CCCCN)C(=O)O | 0.01 | – | 0.02 | – |
| CC[C@H](C)[C@H](NC(=O)[C@H](CCC(N)=O)NC(=O)[C@H](Cc1c[nH]c2ccccc12)NC(=O)[C@H](CCCCN)NC(=O)[C@@H]1CSSC[C@@H]2NC(=O)[C@H](CCC(N)=O)NC(=O)[C@H](CC(=O)O)NC(=O)[C@H](CC(N)=O)NC(=O)[C@H](CO)NC(=O)[C@@H]3CCCN3C(=O)[C@H](CC(N)=O)NC(=O)[C@@H]3CSSC[C@H](NC(=O)[C@H](C(C)C)NC(=O)[C@H](CC(C)C)NC(=O)[C@H](CCCCN)NC(=O)[C@H](CO)NC(=O)[C@H](CO)NC(=O)[C@H](CCCCN)NC(=O)[C@H](CSSC[C@H](NC(=O)[C@H](CCC(=O)O)NC(=O)[C@@H]4CCCN4C(=O)CN)C(=O)N[C@@H](CC(C)C)C(=O)N[C@@H](CCCNC(=N)N)C(=O)N[C@@H]([C@@H](C)CC)C(=O)N[C@@H](Cc4ccccc4)C(=O)N[C@@H](CCCCN)C(=O)N[C@@H](C)C(=O)N3)NC2=O)C(=O)N[C@@H](CO)C(=O)N[C@@H](CCCCN)C(=O)N[C@@H](CCCCN)C(=O)N[C@@H]([C@@H](C)O)C(=O)N[C@@H](CCCNC(=N)N)C(=O)N[C@@H](Cc2c[nH]c3ccccc23)C(=O)N1)C(=O)NCC(=O)N[C@@H](CCCCN)C(=O)O | 0.01 | 0.02 | – | – |
| CC[C@H](C)[C@@H]1NC(=O)[C@H](CCCNC(=N)N)NC(=O)[C@H](CC(C)C)NC(=O)[C@@H](NC(=O)[C@H](CC(N)=O)NC(=O)[C@@H]2CCCN2C(=O)CN)CSSC[C@@H]2NC(=O)[C@@H]3CSSC[C@@H](C(=O)N[C@@H](CCCCN)C(=O)N[C@@H](Cc4ccc(O)cc4)C(=O)N[C@@H](CO)C(=O)N[C@H](C(=O)N[C@H](C(=O)N[C@@H](CCCCN)C(=O)O)[C@@H](C)CC)[C@@H](C)CC)NC(=O)[C@H](Cc4c[nH]c5ccccc45)NC(=O)[C@H](CCCNC(=N)N)NC(=O)[C@H]([C@@H](C)O)NC(=O)[C@H](CCCCN)NC(=O)[C@H](CCCNC(=N)N)NC(=O)[C@H](CO)NC(=O)[C@H](CSSC[C@H](NC(=O)[C@H](C)NC(=O)[C@H](CCCCN)NC(=O)[C@H](Cc4ccccc4)NC1=O)C(=O)N[C@@H](CC(N)=O)C(=O)N1CCC[C@H]1C(=O)N[C@@H](CO)C(=O)N[C@@H](CC(N)=O)C(=O)N[C@@H](CC(=O)O)C(=O)N[C@@H](CCC(N)=O)C(=O)N3)NC(=O)[C@H](C(C)C)NC(=O)[C@H](CC(C)C)NC(=O)[C@H](CCCCN)NC(=O)[C@H](CO)NC(=O)[C@H](CO)NC(=O)[C@H](CCCCN)NC2=O | 0.01 | – | – | – |
| CC[C@H](C)[C@H](NC(=O)[C@H](CCC(N)=O)NC(=O)[C@H](Cc1ccc(O)cc1)NC(=O)[C@H](CCCCN)NC(=O)[C@@H]1CSSC[C@@H]2NC(=O)[C@H](CCC(N)=O)NC(=O)[C@H](CC(=O)O)NC(=O)[C@H](CC(N)=O)NC(=O)[C@H](CO)NC(=O)[C@@H]3CCCN3C(=O)[C@H](CC(N)=O)NC(=O)[C@@H]3CSSC[C@H](NC(=O)[C@H](C(C)C)NC(=O)[C@H](CC(C)C)NC(=O)[C@H](CCCCN)NC(=O)[C@H](CO)NC(=O)[C@H](CO)NC(=O)[C@H](CCCCN)NC(=O)[C@H](CSSC[C@H](NC(=O)[C@H](CCC(=O)O)NC(=O)[C@@H]4CCCN4C(=O)CN)C(=O)N[C@@H](CC(C)C)C(=O)N[C@@H](CCC(=O)O)C(=O)N[C@@H]([C@@H](C)CC)C(=O)N[C@@H](Cc4ccccc4)C(=O)N[C@@H](CCCCN)C(=O)N[C@@H](C)C(=O)N3)NC2=O)C(=O)N[C@@H](CO)C(=O)N[C@@H](CCCNC(=N)N)C(=O)N[C@@H](CCCCN)C(=O)N[C@@H](C)C(=O)N[C@@H](CCCNC(=N)N)C(=O)N[C@@H](Cc2c[nH]c3ccccc23)C(=O)N1)C(=O)NCC(=O)N[C@@H](CCCCN)C(=O)O | – | 0.1 | – | – |
| CC[C@H](C)[C@H](NC(=O)[C@H](CCC(N)=O)NC(=O)[C@H](Cc1ccc(O)cc1)NC(=O)[C@H](CCCCN)NC(=O)[C@@H]1CSSC[C@@H]2NC(=O)[C@H](CCC(N)=O)NC(=O)[C@H](CC(=O)O)NC(=O)[C@H](CC(N)=O)NC(=O)[C@H](CO)NC(=O)[C@@H]3CCCN3C(=O)[C@H](CC(N)=O)NC(=O)[C@@H]3CSSC[C@H](NC(=O)[C@H](C(C)C)NC(=O)[C@H](CC(C)C)NC(=O)[C@H](CCCCN)NC(=O)[C@H](CO)NC(=O)[C@H](CO)NC(=O)[C@H](CCCCN)NC(=O)[C@H](CSSC[C@H](NC(=O)[C@H](CCC(=O)O)NC(=O)[C@@H]4CCCN4C(=O)CN)C(=O)N[C@@H](CC(C)C)C(=O)N[C@@H](CCC(=O)O)C(=O)N[C@@H]([C@@H](C)CC)C(=O)N[C@@H](Cc4ccccc4)C(=O)N[C@@H](CCCCN)C(=O)N[C@@H](C)C(=O)N3)NC2=O)C(=O)N[C@@H](CO)C(=O)N[C@@H](CCCNC(=N)N)C(=O)N[C@@H](Cc2c[nH]c3ccccc23)C(=O)N[C@@H]([C@@H](C)O)C(=O)N[C@@H](CCCNC(=N)N)C(=O)N[C@@H](Cc2c[nH]c3ccccc23)C(=O)N1)C(=O)NCC(=O)N[C@@H](CCCCN)C(=O)O | – | – | > 0.92 | 0.06 |
| CC[C@H](C)[C@H](NC(=O)[C@H](CCC(N)=O)NC(=O)[C@H](Cc1ccc(O)cc1)NC(=O)[C@H](CCCCN)NC(=O)[C@@H]1CSSC[C@@H]2NC(=O)[C@@H]3CCCN3C(=O)[C@H](CC(=O)O)NC(=O)[C@H](CC(N)=O)NC(=O)[C@H](CO)NC(=O)[C@@H]3CCCN3C(=O)[C@H](CC(N)=O)NC(=O)[C@@H]3CSSC[C@H](NC(=O)[C@H](C(C)C)NC(=O)[C@H](CC(C)C)NC(=O)[C@H](CCCCN)NC(=O)[C@H](CO)NC(=O)[C@H](CO)NC(=O)[C@H](CCCCN)NC(=O)[C@H](CSSC[C@H](NC(=O)[C@H](CCC(=O)O)NC(=O)[C@@H]4CCCN4C(=O)CN)C(=O)N[C@@H](CC(C)C)C(=O)N[C@@H](CCC(=O)O)C(=O)N[C@@H]([C@@H](C)CC)C(=O)N[C@@H](Cc4ccccc4)C(=O)N[C@@H](CCCCN)C(=O)N[C@@H](C)C(=O)N3)NC2=O)C(=O)N[C@@H](CO)C(=O)N[C@@H](CCCNC(=N)N)C(=O)N[C@@H](CCCCN)C(=O)N[C@@H]([C@@H](C)O)C(=O)N[C@@H](CCCNC(=N)N)C(=O)N[C@@H](Cc2c[nH]c3ccccc23)C(=O)N1)C(=O)NCC(=O)N[C@@H](CCCCN)C(=O)O | – | – | 4.63 | 0.35 |

Read-outs that look alike come from different tables or passages of the source.
